In PubChem BioAssay AID1800 (The Scripps Research Institute Molecular Screening Center, 2009):
The entries are a selection whose mix differs from that of the whole data set. The source made the active and inactive calls.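 Rule for the calls: active = inhibition above the mean of all tested compounds plus 3 SD, set per campaign (cut at about 35% in these data); inactive = the rest.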

Test system: Hepatitis C virus NS3 helicase
Experiment: inhibitors of HCV NS3 helicase, primary screen, biochemical, Cy5 molecular beacon fluorescence (AID 1800);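 note: 0% = DMSO wells and 100% = thioflavine S control wells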
Conditions: NS3 helicase DNA unwinding, at 10.9 µM, hits give high values
How it was run: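 Assay system – hepatitis C virus NS3 helicase domain fragment enzyme · Buffer or medium – MOPS pH 6.5, MgCl2, DTT, Tween20, BSA · Reagent – Cy5/quencher beacon DNA duplex and ATP to start · Compound – single 10.9 µM dose · Timing – 1 h at 25 °C · Technique – Cy5 beacon fluorescence read at start and 1 h · Measure – % inhibition of unwinding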

SMILES | inhibition
CCOC(=O)c1ccc(NC(=O)C(C)(CCl)SC)cc1 (centres undefined) | inactive: -8.65%
O=C(OC1CN2CCC1CC2)c1cccc([N+](=O)[O-])c1 (centres undefined) | inactive: -1.78%
O=C(Nc1ccncc1[N+](=O)[O-])c1ccc([N+](=O)[O-])cc1[N+](=O)[O-] | inactive: -2.93%
O=C(COc1ccccc1)OC1CN2CCC1CC2 (centres undefined) | inactive: 1.59%
COP1(=S)c2c(C)nn(CCC#N)c2N=C(c2ccc(F)cc2)N1C (centres undefined) | inactive: -11.3%
CC1(CBr)Cn2c(nc3ccccc3c2=O)S1 (centres undefined) | inactive: -2.49%
O=[As](O)(c1ccccc1Br)c1ccccc1Br | inactive: -0.21%
CN(C(=O)Cc1ccc(Cl)c(Cl)c1)[C@@H]1CCCC[C@H]1N1CCCC1 | inactive: -7.36%
CC(C)/C=N\N=C(\N)N[N+](=O)[O-] | inactive: -15.5%
CC(C)(C)C(=O)NC(Sc1ncccn1)C(Cl)(Cl)Cl (centres undefined) | inactive: 3.65%
Clc1n[nH]nc1-c1nn[nH][15n]1 | inactive: -6.27%
CCOP(=O)(Nc1ccc(C)cn1)OCC | inactive: 0.22%
CCOP(=O)(NC(=NC(C)c1ccccc1)NC(C)c1ccccc1)OCC (centres undefined) | inactive: 2.7%
CCC1=CC2Cc3nc4ccc(Cl)cc4c(N)c3C(C1)C2 (centres undefined) | inactive: -26.2%
O=P1(Nc2ccccn2)COc2ccccc2OC1 | inactive: -4.98%
O=P1(Nc2ccc(Br)cn2)COc2ccccc2OC1 | inactive: -0.86%
O=[As](O)(c1cccs1)c1cccs1 | inactive: 7.32%
Cc1ccc(OCC(=O)OC2CN3CCC2CC3)cc1 (centres undefined) | inactive: 5.6%
Nc1cccc([As](=O)(O)c2ccccc2)c1 | inactive: 5.17%
O=P1(Nc2ncccn2)COc2ccccc2OC1 | inactive: 2.52%
O=C(/C=C/c1ccccc1)OC1CN2CCC1CC2 (centres undefined) | inactive: 4.74%
CN(C)C1(CNC(=O)c2ccc(S(C)(=O)=O)cc2)CCCCC1 | inactive: -1.12%

SMILES | inhibition
Cc1ccc(C(=O)OC2CN3CCC2CC3)cc1 (centres undefined) | inactive: -10.3%
CC1CCC(C(C)C)C(OP(=O)(Nc2ccccn2)c2ccccc2)C1 (centres undefined) | inactive: -10.7%
Cc1nn(-c2ccccc2)c2c1P(=O)(N1CCOCC1)N(C)C(c1ccccc1)=N2 (centres undefined) | inactive: -2.49%
O=[N+]([O-])c1ccc2c(c1)nnn2O | inactive: 4.96%
CCOP1(=S)c2c(C)nn(CCC#N)c2N=C(c2ccc(F)cc2)N1C (centres undefined) | inactive: 1.2%
O=C(O)COc1ccc([As](=O)(O)O)cc1[N+](=O)[O-] | inactive: 19%
Nc1ccccc1[As](=O)(O)c1ccccc1 | inactive: 9.3%
CS(=O)(=O)c1cc([N+](=O)[O-])c2no[n+]([O-])c2c1 | inactive: 4.06%
O=P(Nc1nccs1)(c1ccccc1)c1nc2ccccc2s1 (centres undefined) | inactive: -3.59%
O=P(Nc1nccs1)(Oc1ccccc1)Oc1ccccc1 | inactive: 12.7%
CCOP1(=S)c2c(C)nn(CCC#N)c2N=C(c2ccccc2F)N1C (centres undefined) | inactive: -3.94%
CCOP(=O)(Nc1cccc2ccccc12)OCC | inactive: -6.97%
COc1cc(C2NCCC3(OCCO3)C2(C)C)cc(OC)c1OC (centres undefined) | inactive: 6.87%
CCCOP(=S)(Nc1nc(N)cc(=O)[nH]1)OCCC | inactive: 8.73%
Nc1cccc2c([As](=O)(O)O)cccc12 | inactive: 26.8%
Cc1ccc(NCCc2c([N+](=O)[O-])cc([N+](=O)[O-])cc2[N+](=O)[O-])cc1 | inactive: 31.2%
O=[As](O)(c1cccc(O)c1)c1cccc(O)c1 | inactive: 6.97%
Cc1cccc(OCC(=O)OC2CN3CCC2CC3)c1 (centres undefined) | inactive: -2.73%
CS(=O)(=O)c1ccc(Cl)c(NC(=O)COC(=O)C(O)(c2ccccc2)c2ccccc2)c1 | inactive: -3.78%
COc1cc(C(=O)NCC2(N3CCOCC3)CCCCC2)cc(Cl)c1OC(C)C | inactive: 1.19%
O=[As](O)(O)c1cccnc1 | inactive: -4.27%
O=C(OC1CN2CCC1CC2)c1ccc(Cl)cc1 (centres undefined) | inactive: -9.57%
